Test system: BrmGRX
Experiment: One to one NMR signal-broadening kinetic study, BrmGRX
Assay type: biochemical, Brucella melitensis

Row | Structure (SMILES) | Enhancement of rate of reaction over naked acrylamide, BrmGRX (0.3 mM protein, 0.3 mM compound) | Selectivity for BrmGRX (reaction rate) (one to one kinetics, BrmGRX versus hGRX)
1 | C=CC(=O)NCc1ccn(-c2ccc(C(=O)O)cc2)c1 | did not contribute greatly | 
2 | C=CC(=O)NCc1ccn(-c2ccc(C(=O)OC)cc2)c1 [compound 5, Methyl 4-(3-(Acrylamidomethyl)-1H-pyrrol-1-yl)benzoate] |  | 1.5–2 fold

— article PMC6274284 (Molecules, 2016)
